Source: patent US11485758B2, “Bi-terminal pegylated integrin-binding peptides and methods of use thereof” (The Regents of the University of California, priority 2014, dated 2022)
Values joined by “and” are separate entries in the source; they are usually repeats but may differ in a detail not shown here. Equal values may be shown once. Read-outs that look alike come from different tables or passages of the source.

Key:
[1] = system: BxPC-3 tumors (endogenous αvβ6-expression)
Description: (PBS) or 37° C. (serum), followed by analysis on radio HPLC. Data are expressed as % probe remaining intact in sample. […] Tumor models—DX3puroβ6/DX3puro: Human melanoma cell line. DX3puroβ6 has been stably transfected to express integrin αvβ6. DX3puro is negative control cell line. […] BxPC-3: Pancreatic cell line with endogenous αvβ6-expression. MIA PaCa-2: Pancreatic cell line, no αvβ6-expression.

[2] = system: integrin αvβ6-expressing DX3puroβ6 tumors

In the case of 18F-FBA-PEG28-A20FMDV2 [compound 2], the “BxPC-3 (POS) tumor uptake” value ([1]; 1 h p.i.) is reported as 1.9 % ID/g, the “BxPC-3 (POS) tumor uptake” value ([1]; 4 h p.i.) is reported as 1.5 % ID/g and the “DX3puroβ6 (POS) tumor uptake” value ([2]; 1 h p.i.) is reported as 0.49 % ID/g. The “DX3puroβ6 (POS) tumor uptake” value ([2]; 4 h p.i.) was 0.49 % ID/g.

PEG28-A20FMDV2(K16R)-PEG28 was tested, and the “DX3puroβ6 (POS) tumor uptake” value ([2]; 1 h p.i.) was 2.51 % ID/g.

For “[^18F]FBA-PEG28-A20FMDV2 K16R-PEG28 [compound 5R]”, the “DX3puroβ6 (POS) tumor uptake” value ([2]; 4 h p.i.) was 2.64 % ID/g.

For “18F-FBA-PEG28-A20FMDV2-PEG28 [compound 5]”, the “BxPC-3 (POS) tumor uptake” value ([1]; 1 h p.i.) was 4.7 % ID/g and 4.71±0.88 % ID/g, the “BxPC-3 (POS) tumor uptake” value ([1]; 4 h p.i.) was 3.4 % ID/g and 3.39±1.34 % ID/g and the “DX3puroβ6 (POS) tumor uptake” value ([2]; 1 h p.i.) was 2.3 % ID/g. For the same substance, the “DX3puroβ6 (POS) tumor uptake” value ([2]; 4 h p.i.) was 1.4 % ID/g.

“18F-FBA-PEG28-PEG28-A20FMDV2 [compound 3]” was tested, and the “BxPC-3 (POS) tumor uptake” value ([1]; 1 h p.i.) was 1.6 % ID/g, the “BxPC-3 (POS) tumor uptake” value ([1]; 4 h p.i.) was 2.1 % ID/g and the “DX3puroβ6 (POS) tumor uptake” value ([2]; 1 h p.i.) was 0.52 % ID/g. The “DX3puroβ6 (POS) tumor uptake” value ([2]; 4 h p.i.) was 0.54 % ID/g.

In the case of 18F-FBA-A20FMDV2-PEG28 [compound 4], the “DX3puroβ6 (POS) tumor uptake” value ([2]; 1 h p.i.) is reported as 1.3 % ID/g, the “DX3puroβ6 (POS) tumor uptake” value ([2]; 2 h p.i.) is reported as 1.0 % ID/g and the “DX3puroβ6 (POS) tumor uptake” value ([2]; 4 h p.i.) is reported as 0.3 % ID/g.
